EC50 data for two compounds are collected here from ChEMBL document CHEMBL5725581, “Compounds and compositions for treating HIV with derivatives of Betulin” (2018).

A short description of this assay: MT4 Cell Antiviral Assay: Antiviral HIV activity and compound-induced cytotoxicity were measured in parallel by means of a propidium iodide based procedure in the human T-cell lymphotropic virus transformed cell line MT4. Aliquots of the test compounds were serially diluted in medium (RPMI 1640, 10% fetal calf serum (FCS), and gentamycin) in 96-well plates (Costar 3598) using a Cetus Pro/Pette. ….

As to `CC(C)C1=C2[C@H]3CC[C@@H]4[C@@]5(C)CC[C@H](OC(=O)CC(C)(C)C(=O)O)C(C)(C)[C@@H]5CC[C@@]4(C)[C@]3(C)CC[C@@]2([C@@H](O)CN(CCN(C)C)Cc2cccc(Cl)c2F)CC1=O`, the EC50 (as a rule, the concentration that produces a half-maximal response) came to 3.4 nM. On to `CC(C)C1=C2[C@H]3CC[C@@H]4[C@@]5(C)CC[C@H](OC(=O)CC(C)(C)C(=O)O)C(C)(C)[C@@H]5CC[C@@]4(C)[C@]3(C)CC[C@@]2([C@H](O)CN(CCN(C)C)Cc2cccc(Cl)c2F)CC1=O`, for which the EC50 (MT4, 10 min) worked out at 4.2 nM.
